Pooled drug test results. Numbers come from NIAID ChemDB, via PubChem.

Common to all: growth or infection tests; organism: Candida albicans; endpoint: MIC

Neighbouring rows are from separate reports. Blank or dashed fields: not listed here.

SMILES,strain,setting,result
COc1c(O)ccc2c(=O)c3cccc(O)c3oc12,-,-,>25 µg/mL
COc1ccc(/C=C2\CSc3ccccc3C2=O)cc1OC,-,-,100 µg/mL
COCCOCCOCCOCCOCCOCCNC(=O)[C@H]1[C@@H]2C[C@@H](O[C@@H]3O[C@H](C)[C@@H](O)[C@H](N)[C@@H]3O)/C=C/C=C/C=C/C=C/C=C/C=C/C=C/[C@H](C)[C@@H](O)[C@H](C)[C@H](C)OC(=O)C[C@H](O)C[C@H](O)[C@@H](O)CC[C@H](O)C[C@H](O)C[C@](O)(C[C@@H]1O)O2,Isolate 92-343,-,3.03 µg/mL
C[C@@H](SC1COC(/C=C/C=C/c2ccc(C#N)cc2F)OC1)[C@](O)(Cn1cncn1)c1ccc(F)cc1F,CAL-0014,-,0.06 µg/mL
CCC(=O)C1Sc2ccccc2N(C2CCCCCC2)C1=O,ATCC 10231,-,≥100 µg/mL
C=C(C)[C@@H]1CC[C@]2(C(=O)O)CC[C@]3(C)[C@H](CC[C@@H]4[C@@]5(C)CC[C@H](O)C(C)(C)[C@@H]5CC[C@]43C)[C@@H]12,-,-,>25 µg/mL
N/C(=N\N=C(/Cn1ccnc1)c1ccc(Br)cc1)c1ccccn1,Isolate 685,-,0.125 µg/mL
NC(N)=NCCC[C@H](NC(=O)Cc1ccccc1)C(=O)NCCCCCCCCNC(=O)[C@H](CCCN=C(N)N)NC(=O)Cc1ccccc1,-,-,319 µM
CCCCN1C(=O)C2(CCN(Cc3ccccc3)CC2=O)Sc2ccccc21,ATCC 10231,-,≥100 µg/mL
COc1ccc(/C=C2\CCc3ccccc3C2=O)cc1,-,-,50 µg/mL
CO[C@@H](n1cncn1)[C@@](O)(Cn1cncn1)c1ccc(Cl)cc1Cl,-,-,>100 µg/mL
CCCSc1ccc2nc(NC(=O)OC)[nH]c2c1,R-1590,24 h,10 µg/mL
N/C(=N\N=C(/Cn1ccnc1)c1ccccc1)c1ccccn1,Isolate 685,-,2 µg/mL
O=C1/C(=C/c2ccc(-c3ccccc3)cc2)CSc2ccccc21,-,-,25 µg/mL
N/C(=N\NC(=O)c1ccccc1)SCc1cccc(Cl)c1,-,-,>100 µg/mL
Cc1c(Cl)[n+](=O)c2cc(Cl)ccc2n1[O-],Clinical isolate 15,-,15.6 µg/mL
CC1C(=O)C(C)C(c2ccccc2)N(OCCc2nc3ncccc3[nH]2)C1c1ccccc1,51 (NCIM-C27),-,50 µg/mL
CC(=O)/C=C1\Sc2ccccc2N1/C1=C/CCCCCCCCCC1,ATCC 14053,-,≥100 µg/mL
O=c1c2cccc(O)c2oc2cc(O)cc(O)c12,-,-,>25 µg/mL
CS[C@@H](n1cncn1)[C@@](O)(Cn1cncn1)c1ccc(Cl)cc1Cl,-,-,>100 µg/mL
N/C(=N\NC(=O)c1ccc([N+](=O)[O-])cc1)SCc1cccc(Cl)c1,-,-,>100 µg/mL
O=C(O)c1ccc(O)c(O)c1,-,-,>25 µg/mL
C[C@H]1[C@H](O)[C@@H](C)/C=C/C=C/C=C/C=C/C=C/C=C/C=C/[C@H](O[C@@H]2O[C@H](C)[C@@H](O)[C@H](N)[C@@H]2O)C[C@@H]2O[C@](O)(C[C@@H](O)C[C@@H](O)CC[C@H](O)[C@@H](O)C[C@@H](O)CC(=O)O[C@H]1C)C[C@H](O)[C@H]2C(=O)O,SC14061 (azole-resistant),-,0.13 µg/mL
Cc1c(Sc2ccccc2)[n+](=O)c2cc(C(F)(F)F)ccc2n1[O-],Clinical isolate 19,-,7.8 µg/mL
CCCCCCCCOc1ccc(-c2ccc(C(=O)NC3CC(NCCN)CNC(=O)[C@@H]4[C@@H](O)[C@@H](C)CN4C(=O)[C@@H](CO)NC(=O)[C@H]([C@H](O)Cc4ccccc4)NC(=O)[C@@H]4C[C@@H](O)CN4C(=O)[C@H]([C@@H](C)O)NC3=O)cc2)cc1,2438,-,0.5 µg/mL
C[C@@H](c1nc(-c2ccc(C#N)cc2)cs1)[C@](O)(Cn1cncn1)c1ccc(F)cc1F,E81113,-,0.78 µg/mL
COc1ccc2c(c1)C(=O)/C(=C/c1ccc(OC)c(OC)c1)CO2,-,-,25 µg/mL
COc1ccc(S(=O)(=O)Nc2ccc3c(c2)Sc2ccccc2O3)cc1,C316,-,6 µg/mL
CO[C@@H](n1cccn1)[C@](O)(Cn1cncn1)c1ccc(Cl)cc1,-,-,>100 µg/mL
CS/C(N)=N/NC(=O)c1ccc(Cl)cc1,-,-,>100 µg/mL
COc1ccc(C2CC(=O)CC(c3ccc(OC)cc3)N2OCCc2nc3ncccc3[nH]2)cc1,6 (NCIM-C27),-,25 µg/mL
COc1ccc(/C=C2\CSc3ccc(OC)cc3C2=O)cc1,-,-,25 µg/mL
CCCCCCC(=O)/C=C1\Sc2ccccc2N1C1=CCCCCC1,ATCC 14053,-,>100 µg/mL
CCCCC/C=C\C/C=C\CCCCCCCC(=O)N[C@H]1C[C@@H](O)[C@@H](O)NC(=O)[C@@H]2[C@@H](O)[C@@H](C)CN2C(=O)[C@H]([C@H](C)O)NC(=O)[C@H]([C@H](O)[C@@H](O)c2ccc(O)cc2)NC(=O)[C@@H]2C[C@@H](O)CN2C(=O)[C@H]([C@H](C)O)NC1=O,-,-,0.3 µg/mL
NC(N)=NCCC[C@H](NC(=O)Cc1ccccc1)C(=O)NCCCCCCCCCCCCCCNC(=O)[C@H](CCCN=C(N)N)NC(=O)Cc1ccccc1,-,-,143 µM
C=CCS/C(N)=N/NC(=O)c1ccc(F)cc1,-,-,>100 µg/mL
Cc1ccc2c(c1)S/C(=C\C(=O)C(C)C)N2C1CCC1,ATCC 10231,-,>100 µg/mL
COc1ccccc1/C=C1\CSc2ccc(Cl)cc2C1=O,-,-,12.5 µg/mL
O=[n+]1c(Sc2ccccc2)c(CBr)n([O-])c2ccccc21,Clinical isolate 11,-,31.25 µg/mL
Clc1ccc(COC(Cn2ccnc2)c2ccc(Cl)cc2Cl)cc1,-,-,2.24 µg/mL
CCC(=O)/C=C1\Sc2ccccc2N1/C1=C/CCCCCCCCCC1,ATCC 14053,-,≥100 µg/mL
O=C1CC(c2ccc(Cl)cc2)N(OCCc2nc3ncccc3[nH]2)C(c2ccc(Cl)cc2)C1,NCIM-C27,-,50 µg/mL
CC(=O)/C=C1\Sc2ccccc2N1C1CCCCCC1,ATCC 10231,-,50 µg/mL
O=S(=O)(Nc1ccc2c(c1)Sc1ccccc1O2)c1ccc(F)cc1,C316,-,8 µg/mL
NC(N)=NCCC[C@H](NC(=O)Cc1ccccc1)C(=O)NCCCCCCCCCCCCNC(=O)[C@H](CCCN=C(N)N)NC(=O)Cc1ccccc1,-,-,149 µM
O=C(Nc1cccc([N+](=O)[O-])c1)c1ncccc1O,ATCC 44859,-,>250 µM
C=CCS/C(N)=N/NC(=O)c1cc(OC)c(OC)c(OC)c1,-,-,>100 µg/mL
CC(C)C(=O)/C=C1\Sc2ccccc2N1/C1=C/CCCCCCCCCC1,ATCC 14053,-,>100 µg/mL
COc1cc(/C=C2\CSc3ccccc3C2=O)ccc1O,-,-,50 µg/mL
Cc1ccc(NC(=O)c2ncccc2S)cc1,ATCC 44859,-,15.63 µM
Cc1cc(C)[n+](-c2cccc(S(=O)(=O)Nc3ccc4c(c3)Sc3ccccc3O4)c2)c(C)c1,C316,-,15 µg/mL
CCCCCCCCCCSCC(O)C(=O)O,ATCC 60193,-,0.00104 µM
Cc1ccc(/C(Cn2ccnc2)=N/N=C(\N)c2ccccn2)cc1,Isolate 685,-,0.5 µg/mL
COc1cc(O)c2c(c1)C(=O)c1c(cc3c(c1O)-c1c(cc(C)c(C(=O)NC(C)C(=O)O)c1O)[C@H](OC1OC(C)C(N(C)C)C(OC4OCC(O)C(O)C4O)C1O)[C@H]3O)C2=O,ATCC 38247 (amphotericin B-resistant),-,1.6 µg/mL
CCOc1ccc(/C=C2\CCc3ccccc3C2=O)cc1,-,-,50 µg/mL
Cc1c(Sc2ccccc2)[n+](=O)c2cc(Cl)ccc2n1[O-],Clinical isolate 23,-,31.25 µg/mL
CS[C@@H](n1cncn1)[C@@](O)(Cn1cncn1)c1ccc(Cl)cc1,-,-,>100 µg/mL
O=S(=O)(Cc1ccccc1)Nc1ccc2c(c1)Sc1ccccc1O2,C316,-,17 µg/mL
Cc1c(S(=O)(=O)c2ccccc2)[n+](=O)c2cc(Cl)ccc2n1[O-],Clinical isolate 16,-,62.5 µg/mL
CS/C(N)=N/NC(=O)c1ccc([N+](=O)[O-])cc1,-,-,>100 µg/mL
Cc1cc(COc2ccc(Oc3ccc(Cl)cc3)cc2)n(O)c(=O)c1,TIMM0144,-,4 µg/mL
O=C(O)c1ccccc1S(=O)(=O)Nc1ccc2c(c1)Sc1ccccc1O2,C316,-,31 µg/mL
O=C1CCC/C1=C1/Sc2ccccc2N1C1CCCCCC1,ATCC 14053,-,50 µg/mL
O=C(Nc1ccc([N+](=O)[O-])cc1)c1ccccc1O,ATCC 44859,-,31.25 µM
CC(=O)Nc1ccc(S(=O)(=O)Nc2ccc3c(c2)Sc2ccccc2O3)cc1,C316,-,7 µg/mL
Cc1ccc(/C=C2\COc3ccccc3C2=O)cc1,-,-,12.5 µg/mL
C=CCNC(=S)Nc1cccc(S(=O)(=O)Nc2ccc3c(c2)Sc2ccccc2O3)c1,C316,-,1.4 µg/mL
CS/C(N)=N/NC(=O)c1ccc(C)cc1,-,-,>100 µg/mL
CO[C@@H](n1cccn1)[C@@](O)(Cn1ccnc1)c1ccc(F)cc1F,-,-,>100 µg/mL
Cc1ccc(/C(Cn2cncn2)=N/N=C(\N)c2ccccn2)cc1,Isolate 685,-,64 µg/mL
O=C(Nc1ccc(Br)cc1)c1ccccc1O,ATCC 44859,-,15.63 µM

For reference, 5 entries again:

| SMILES | strain | setting | result |
|---|---|---|---|
| O=C(Nc1ccc(Br)cc1)c1ccccc1O | ATCC 44859 | - | 15.63 µM |
| O=[n+]1c(Sc2ccccc2)c(CBr)n([O-])c2ccccc21 | Clinical isolate 11 | - | 31.25 µg/mL |
| Cc1c(Cl)[n+](=O)c2cc(Cl)ccc2n1[O-] | Clinical isolate 15 | - | 15.6 µg/mL |
| Cc1ccc(NC(=O)c2ncccc2S)cc1 | ATCC 44859 | - | 15.63 µM |
| CC(=O)/C=C1\Sc2ccccc2N1C1CCCCCC1 | ATCC 10231 | - | 50 µg/mL |